Results as given in article PMC4133393, “Structure of CfaA Suggests a New Family of Chaperones Essential for Assembly of Class 5 Fimbriae” (2014).

These substances were tested against (his)6CfaB, mature CfaB (residues 24–170) with N-terminal hexahistidine tag (enterotoxigenic E. coli (ETEC)) (UniProt E3PPC4) (assay: pull-down).
With CfaA (20–238) Y120A (natural protein) the CfaA/CfaB ratio was 0.13.
Substance “CfaA (20–238) C163S/C172S (natural protein)” has a CfaA/CfaB ratio of 0.36.
Substance CfaA (20–238) T112A (natural protein) has a CfaA/CfaB ratio of 0.67.
Substance CfaA (20–238) V116A (natural protein) has a CfaA/CfaB ratio of 0.06.
CfaA (20–238) E86A (natural protein) gave a CfaA/CfaB ratio of 0.32.
Work on CfaA (20–238) I118A (natural protein) yielded a CfaA/CfaB ratio of 0.11.
Work on “CfaA (20–238) T44A/E45A/E46A (natural protein)” yielded a CfaA/CfaB ratio of 0.67.
With “CfaA (20–238) K164-N171 (8×A) (natural protein)” the CfaA/CfaB ratio was 0.37.
For CfaA (20–238) R154A (natural protein), the CfaA/CfaB ratio was 0.44.
CfaA (20–238) R125A (natural protein) was tested, and the CfaA/CfaB ratio was 0.47.
For CfaA (20–238) L114A (natural protein), the CfaA/CfaB ratio was 0.36.
